Anti-infective test results gathered from many reports (values: NIAID ChemDB through PubChem).

Common to all: enzyme or target tests; species: HIV-1; target: Reverse transcriptase; read by: nucleotide incorporation / radiometric; endpoint: IC50

Two numbers with a dash give a range or band.

| compound | strain | mutations | value |
|---|---|---|---|
| CCOC(=O)c1c[nH]cc1S(=O)(=O)c1cc(Cl)ccc1N |  |  | 7.8–10.4 µM |
| C=C(CC[C@@H](C)[C@H]1CC[C@@]2(C)[C@@H]3CC[C@H]4[C@](C)(C(=O)O)[C@@H](O)CC(=O)[C@@]45C[C@@]35CC[C@]12C)C(C)C |  |  | 47.9 µg/mL |
| Cc1cn([C@@H]2O[C@H](CO[Si](C)(C)C(C)(C)C)C3(OS(=O)(=O)C=C3N)[C@H]2O[Si](C)(C)C(C)(C)C)c(=O)n(C)c1=O | WT |  | 1.6 µM |
| COc1cc(O)c2c(=O)cc(-c3cc(OC)c(OC)c(OC)c3OC)oc2c1 |  |  | >200 µg/mL |
| Cc1cn([C@H]2CC[C@@H](COP(=O)(O)OP(=O)(O)OP(=O)(O)O)O2)c(=O)[nH]c1=O |  |  | 0.12 µM |
| Cc1cc(C)nc(N2C(=O)CSC2c2c(F)cccc2Cl)n1 |  |  | 2.5 µM |
| CCC1(c2cccc(Cl)c2)Oc2ccccc2-n2cccc2C1=O |  | RT-L100I | 0.6 µM |
| CC(C)=CCc1c2c(c(O)c3c1O[C@@]14C(C[C@H]5CC1C(C)(C)O[C@]4(C/C=C(\C)C=O)C5=O)C3=O)C=CC(C)(C)O2 |  |  | 42.3 µg/mL |
| Cc1c(Cc2c(Cl)cccc2Cl)nc(SCc2cccc(F)c2)[nH]c1=O |  | RT-181I | >400 µM |
| CCN1c2ncc(CCOc3cccc4c3CCCN4CC(=O)O)cc2C(=O)N(C)c2cccnc21 |  | RT-K103N Y181C | >1 µM |
| Cc1c(Cc2c(Cl)cccc2Cl)nc(S(=O)(=O)Cc2ccc(Br)cc2)[nH]c1=O | WT |  | >400 µM |
| CCN1c2ncc(CCOc3ccc(S(N)(=O)=O)c4ccccc34)cc2C(=O)N(C)c2cccnc21 |  | RT-V106A | 0.1–1 µM |
| Cc1cn([C@H]2CC[C@@H](OCP(=O)(O)OP(=O)(O)OP(=O)(O)O)O2)c(=O)[nH]c1=O |  |  | 5.4 µM |
| CCC1(c2cccc(I)c2)Oc2ccccc2-n2cccc2C1=O |  | RT-K103N | >10 µM |
| CCN1c2ncc(CCc3cc[nH]c(=O)c3)cc2C(=O)N(C)c2ccc(Cl)nc21 | WT |  | <1 µM |
| CCCCC1(O)C(=O)C=C2N(C1=O)c1ccccc1C2(C)C | RF |  | >100 µM |
| Fc1cccc(F)c1C1SCc2nc3ccccc3n21 |  |  | 14.6 µM |
| CC(=O)OCc1cn(Cc2ccncc2)c(Sc2ccccc2)c1C(C)C |  |  | 0.3 µM |
| COc1cc2c(ccc3c4cc(OC)c(OC)cc4c[n+](C)c23)cc1O |  |  | 10.9 µg/mL |
| Cc1cc(C)c(-n2nnnc2SCC(=O)Nc2cccc([N+](=O)[O-])c2)c(C)c1 |  |  | <2 µM |
| CCN1c2ncc(O)cc2C(=O)N(C)c2ccc(Cl)nc21 |  | RT-Y181C | >1 µM |
| CC1(C)C2=CC(=O)C(O)(c3ccccc3)C(=O)N2c2ccccc21 | RF |  | >100 µM |
| CCN1c2ncc(COc3ccc4[nH]ccc4c3)cc2C(=O)N(C)c2ccc(Cl)nc21 | WT |  | <1 µM |
| Cc1cn([C@@H]2O[C@H](CO[Si](C)(C)C(C)(C)C)[C@@]3(OS(=O)(=O)C=C3N)[C@H]2O[Si](C)(C)C(C)(C)C)c(=O)[nH]c1=O | WT |  | 1.6 µM |
| CCN1c2ncc(CCc3cccc(F)c3)cc2C(=O)N(C)c2cccnc21 | WT |  | <1 µM |
| CCN1c2ncc(CCOc3ccc(CC(C)C(=O)O)c4ccccc34)cc2C(=O)Nc2c(C)cc(Cl)nc21 |  | RT-Y188L | >1 µM |
| Cc1cc(C)c(-n2nnnc2SCC(=O)Nc2ccccc2I)c(C)c1 |  |  | <2 µM |
| CCN1c2ncc(CCOc3ccc(CCC(=O)O)c4ccccc34)cc2C(=O)Nc2c(C)ccnc21 |  | RT-V106A | 0.1–1 µM |
| CCN1c2ncc(COc3cccc4[nH]ccc34)cc2C(=O)N(C)c2ccc(Cl)nc21 |  | RT-Y181C | <1 µM |
| Cc1c(Cc2c(Cl)cccc2Cl)nc(SCc2ccc(F)cc2)[nH]c1=O |  | RT-K103N | >400 µM |
| Nc1ncnc2c1ncn2[C@H]1C[C@H](O)[C@]2(COP(=O)(O)OP(=O)(O)OP(=O)(O)O)C[C@H]12 |  |  | 0.5 µM |
| OCc1cn(Cc2ccncc2)c(Sc2cc(Cl)cc(Cl)c2)c1C1CCC1 |  | RT-Y181I | 10.4 µM |
| C#C[C@@]1(COP(=O)(O)OP(=O)(O)OP(=O)(O)O)CC[C@H](n2ccc(N)nc2=O)O1 |  | RT-M184V | 0.2 µM |
| Cc1c(C(C)c2c(F)cccc2F)nc(SC2CCCC2)[nH]c1=O |  | RT-K103N | 0.03 µM |
| Cc1cn([C@H]2C=C[C@@H](COP(=O)(O)OP(=O)(O)OP(=O)(O)O)O2)c(=O)[nH]c1=O |  |  | 0.2 µM |
| Cc1ccnc(N2C(=O)CSC2c2c(F)cccc2Cl)n1 |  |  | 1.79 µM |
| CC(C)c1c(CO)cn(Cc2ccncc2)c1Sc1cc(Cl)cc(Cl)c1 |  |  | 0.2 µM |
| CCC1(c2ccc(COc3cccnc3)cc2)Oc2ccccc2-n2cccc2C1=O |  | RT-K103N | 2 µM |
| CCN1c2ncc(CCOc3ccc(CCC(=O)O)c4ccccc34)cc2C(=O)N(C)c2ccc(C)nc21 |  | RT-Y188L | >1 µM |
| CCOC(=O)c1cn(C)cc1S(=O)(=O)c1cc(Cl)ccc1N |  |  | 7.8–10.4 µM |
| Cc1cc(C)c(-n2nnnc2SCC(=O)Nc2cccc(F)c2C#N)c(C)c1 |  |  | <2 µM |
| CCC1(c2ccc(CCc3ccccc3)cc2)Oc2ccccc2-n2cccc2C1=O | WT |  | 0.17 µM |
| C[C@@H]1CN2CCC[C@@H]3CCCCC[C@@H]4C(=O)[C@@H](C)CN5CCC[C@@H](CCCCC[C@@H](C1=O)[C@H]32)[C@H]45 |  |  | 14.8 µM |
| O=C(CSc1nnnn1-c1ccccc1-c1ccccc1)Nc1ccccc1[N+](=O)[O-] |  |  | <2 µM |
| CCC1(c2ccc(COc3ccccc3Cl)cc2)Oc2ccccc2-n2cccc2C1=O | WT |  | 1 µM |
| CC(C)=CCC[C@]1(C)C=Cc2c(O)c3c(c(CC=C(C)C)c2O1)O[C@@]12C(=C[C@H]4CC1C(C)(C)O[C@]2(C/C=C(/C)C(=O)O)C4=O)C3=O |  |  | 15 µg/mL |
| CCN1c2ncc(CSc3ccncc3)cc2C(=O)N(C)c2ccc(Cl)nc21 |  | RT-Y181C | <1 µM |
| Cc1cc(C)cc(S(=O)(=O)c2c(C(=O)NNCCO)[nH]c3ccc(Cl)cc23)c1 |  | RT-V179D | >40 µM |
| NC(=O)OCc1cn(Cc2ccncc2)c(Sc2cc(Cl)cc(Cl)c2)c1C1CCC1 |  | RT-L100I | 13.9 µM |
| CC(C)=CCC/C(C)=C/C[C@]12C=C3C(=O)c4c(O)cc(O)c(CC=C(C)C)c4O[C@]34C(C1)C(C)(C)O[C@]4(CC=C(C)C)C2=O |  |  | 190 µg/mL |
| Cc1c(Cc2ccc(F)cc2)nc(SCc2ccc([N+](=O)[O-])cc2)[nH]c1=O |  | RT-K103N | >400 µM |
| CCC1(c2ccc(CNc3cccc(F)c3)cc2)Oc2ccccc2-n2cccc2C1=O |  | RT-V106A | 1.5 µM |
| CCN1c2ncc(CS(=O)c3ccccc3)cc2C(=O)N(C)c2ccc(Cl)nc21 | WT |  | <1 µM |
| CC(C)=CCc1c(O)cc(O)c2c1O[C@@]13C(=C[C@H]4CC1C(C)(C)O[C@]3(CC=C(C)C)C4=O)C2=O |  |  | 621 µg/mL |
| CCN1c2ncc(CCOc3ccc(C(=O)O)c4c3CCCC4)cc2C(=O)N(C)c2cccnc21 |  | RT-K103N Y181C | 0.1–1 µM |
| CC(C)=CCOc1cc(NC(=S)c2ccoc2C)ccc1Cl | WT |  | 0.11 µM |
| C=C(CC(=O)O)c1ccc(OCCc2cnc3c(c2)C(=O)N(C)c2cccnc2N3CC)c2ccccc12 |  | RT-Y188L | >1 µM |
| CC(=O)C1(c2ccccc2)C(=O)C=C2N(C1=O)c1ccc(Cl)cc1C2(C)C | RF |  | 10 µM |
| Cc1ccnc(N2C(=O)CSC2c2c(Cl)cccc2Cl)n1 |  |  | 0.92 µM |
| CCN1c2ncc(CCOc3ccc(C(=O)O)c4ccccc34)cc2C(=O)N(C)c2ccc(Cl)nc21 |  | RT-Y188L | 0.1–1 µM |

An empty or dashed field is not shown. ICn: concentration for n% inhibition. Neighbouring rows are from separate reports.